Values of other authors as cited in paper PMC12676205, “New Se‐Compounds With Antileishmanial, Antitumor, and Carbonic Anhydrase Inhibitory Properties” (Archiv Der Pharmazie, 2025).

Legend:
[1] = test system: L. infantum promastigotes; set-up: method as in PMID 37570815, PMID 36364304; conditions: CC50 THP‐1 / IC50; reference drugs; cited from earlier work
L. major promastigotes = test system: L. major promastigotes; set-up: method as in PMID 37570815, PMID 36364304; conditions: CC50 THP‐1 / IC50; reference drugs; cited from earlier work

Compound | SI L. infantum [1] | SI L. major (L. major promastigotes)
CCCCCCCCCCCCCCCCOP(=O)([O-])OCC[N+](C)(C)C [Miltefosine, miltefosine] | 0.4 | 0.2
NC[C@@H]1O[C@H](O[C@H]2[C@@H](O)[C@H](O[C@@H]3[C@@H](O)[C@H](N)C[C@H](N)[C@H]3O[C@H]3O[C@H](CO)[C@@H](O)[C@H](O)[C@H]3N)O[C@@H]2CO)[C@H](N)[C@@H](O)[C@@H]1O [Paromomycin, paromomycin] | 2.2 | 0.6
